A mixed list of measured activities; the numbers were collected in NIAID ChemDB.

All rows: target-level tests; species: HIV-1

Blank or dashed fields: not listed here. Fold resistance has wild type as its base. Lines come from different laboratories, so protocols vary. a–b is a range or a potency band. ICn: concentration for n% inhibition. Inhibition is in % at the dose shown (toxicity tests: loss of growth or viability).

structure	read-out	strain or isolate	method	changes	protein	dose	result
CC(C)(C)C(=O)c1cn2ccn(Cc3ccc(F)cc3)c(=O)c2c(O)c1=O	IC50		ELISA		Integrase		<0.01 µM
CC(C)(C)NC(=O)[C@@H]1CSCN1C(=O)[C@@H](O)[C@H](Cc1ccccc1)NC(=O)[C@H](CS(C)(=O)=O)NC(=O)COc1cccc(C(=O)N2CCCCC2)c1	IC50				Protease		<0.05 µM
O=c1c(Br)cn2ccn(Cc3cccc(Cl)c3)c(=O)c2c1O	IC50		ELISA		Integrase		0.01–0.1 µM
CN=C(NC#N)NCCCCC(C)(C)CN(C[C@@H](O)[C@H](Cc1ccccc1)NC(=O)O[C@H]1CO[C@H]2OCC[C@H]21)S(=O)(=O)c1ccc2c(c1)OCO2	Ki		fluorescence		Protease		<0.001 µM
CC[C@H](C)[C@H](NC(=O)[C@@H]1CCCN1C(=O)[C@@H](O)[C@H](Cc1ccccc1)NC(=O)[C@H](CC(N)=O)NC(=O)[C@H](Cc1ccccc1)NC(=O)[C@@H](N)CO)C(=O)N[C@H](C(N)=O)C(C)C	inhibition				Protease	5 µM	97.8%
COc1ccc(S(=O)(=O)N(C[C@@H](O)[C@H](Cc2ccccc2)NC(=O)O[C@H]2CCCO2)CC2(CCC#N)CCCCC2)cc1	Ki		fluorescence		Protease		<0.001 µM
Cc1noc(CN2CCn3c(nc(C(=O)NCc4ccc(F)cc4)c(O)c3=O)C2(C)C)n1	IC50		ELISA		Integrase		<10 µM
CC(C)(CCCCOC(=O)N1CCCC1)CN(C[C@@H](O)[C@H](Cc1ccccc1)NC(=O)O[C@H]1CO[C@H]2OCC[C@H]21)S(=O)(=O)c1ccc2c(c1)OCO2	Ki		fluorescence		Protease		<0.001 µM
CC(C)(C)NC(=O)[C@@H]1CCCN1C(=O)[C@@H](O)[C@H](Cc1ccccc1)NC(=O)[C@H](CS(C)(=O)=O)NC(=O)COc1ccc2ccccc2c1	inhibition				Protease	0.05 µM	71.2%
CC(C)CC(=O)NCCCC(C)(C)CN(C[C@@H](O)[C@H](Cc1ccccc1)NC(=O)O[C@H]1CO[C@H]2OCC[C@H]21)S(=O)(=O)c1ccc2c(c1)OCO2	Ki		fluorescence		Protease		<0.001 µM
CC1(C)c2nc(C(=O)NCc3ccc(F)cc3)c(O)c(=O)n2CCN1S(C)(=O)=O	IC50		ELISA		Integrase		<10 µM
NC(=O)C[C@H](NC(=O)OCc1ccccc1)C(=O)N[C@@H](Cc1ccccc1)[C@H](O)C(=O)N1CCC[C@H]1C(N)=O	inhibition				Protease	0.05 µM	25.8%
CN(C)C(=O)NCCCCC(C)(C)CN(C[C@@H](O)[C@H](Cc1ccccc1)NC(=O)O[C@H]1CO[C@H]2OCC[C@H]21)S(=O)(=O)c1ccc(N)cc1	Ki		fluorescence		Protease		<0.001 µM
CC(C)NC(=O)[C@@H]1CCCN1C(=O)[C@@H](O)[C@H](Cc1ccccc1)NC(=O)[C@H](CC(N)=O)NC(=O)OCc1ccccc1	inhibition				Protease	5 µM	90%
CC(C)(CCNS(C)(=O)=O)CN(C[C@@H](O)[C@H](Cc1ccccc1)NC(=O)O[C@H]1CO[C@H]2OCC[C@H]21)S(=O)(=O)c1ccc2c(c1)OCO2	Ki		fluorescence		Protease		<0.001 µM
CC(=O)N1CCn2c(nc(C(=O)NCc3ccc(F)cc3)c(O)c2=O)C1(C)C	IC50		ELISA		Integrase		<10 µM
O=C1c2c(O)c(=O)ccn2CC(Cc2ccccc2)N1Cc1ccc(Cl)c(Cl)c1	IC50		ELISA		Integrase		0.01–0.1 µM
Cc1ccc(Cl)cc1Nc1nc(C(F)(F)F)ccc1C(=O)NN1CCN(c2cccc(Cl)c2)CC1	fold resistance		RNase H / absorbance	Y181C	RNase H		3.1
COc1ccnc2[nH]cc(C(=O)C(=O)N3CCN(C(=O)c4ccccc4)C[C@H]3C)c12	fold resistance	NL4-3	ELISA	GP120-M434T	gp120		>97
CN1CCn2c(nc(C(=O)NCc3ccc(F)cc3)c(O)c2=O)C12CCOCC2	IC50		ELISA		Integrase		<10 µM
COC(=O)N[C@H](C(=O)N[C@@H](Cc1ccccc1)[C@H](O)CN(CC(C)(C)CCCCNS(C)(=O)=O)S(=O)(=O)c1ccc2c(c1)OCO2)C(C)(C)C	Ki		fluorescence		Protease		<0.001 µM
CN1CCn2c(nc(C(=O)NCc3ccc(F)c(Cl)c3)c(O)c2=O)C(N(C)C(=O)C(=O)N(C)C)C1	IC50		ELISA		Integrase		<10 µM
CC[C@@H](C)[C@H](NC(=O)[C@@H]1CCCN1C(=O)[C@@H](O)[C@H](Cc1ccccc1)NC(=O)[C@H](CC(N)=O)NC(=O)OC(C)(C)C)C(=O)NCC1CCCCC1	IC50				Protease		~5 µM
CC(C)(CCNC(=O)O[C@@H]1CCOC1)CN(C[C@@H](O)[C@H](Cc1ccccc1)NC(=O)O[C@H]1CO[C@H]2OCC[C@H]21)S(=O)(=O)c1ccc2c(c1)OCO2	Ki		fluorescence		Protease		<0.001 µM
O=c1c(-c2ncccn2)cn2ccn(Cc3cccc(Cl)c3)c(=O)c2c1O	IC50		ELISA		Integrase		0.01–0.1 µM
CC1(C)c2nc(C(=O)NCc3ccc(F)cc3)c(O)c(=O)n2CCN1Cc1nnco1	IC50		ELISA		Integrase		<10 µM
CCCCNC(=O)OCCCC(C)(C)CN(C[C@@H](O)[C@H](Cc1ccccc1)NC(=O)O[C@H]1CO[C@H]2OCC[C@H]21)S(=O)(=O)c1ccc2c(c1)OCO2	Ki		fluorescence		Protease		<0.001 µM